Pooled drug test results. Numbers come from NIAID ChemDB, via PubChem.

Shared fields: toxicity to cultured cells; cell line: MDBK; read-out: CC50

CCn: concentration that lowers growth or viability of the cells by n%.

| structure | value |
|---|---|
| COC(=O)/C(C)=C/Cc1c(O)c2c(c(C)c1OC)COC2=O | >100 µM |
| OC[C@@H]1[C@@H](O)[C@H](O)[C@@H](O)CN1CCCCC1CCCCC1 | 400 µM |
| NC(=O)C1=CSN([C@@H]2O[C@H](COP(=O)([O-])CP(=O)([O-])OCC3OC(n4cnc5c(N)ncnc54)C(F)C3O)[C@@H](O)[C@H]2O)N1 | >100 µM |
| Cn1cnc([N+](=O)[O-])c1Sc1ncnc2nc[nH]c12 | >40 µM |
| Nc1nc2c(ncn2COC(CO)CO)c(=O)[nH]1 | <50 µM |
| CCc1nc(N)nc(N)c1-c1ccc(Cl)cc1 | 338 µg/mL |
| CCCC(=O)O[C@H]1CN2CC[C@H](O)[C@@H]2[C@@H](O)[C@@H]1O | >1000 µM |
| OC[C@@H]1CC[C@H](n2cnc3c(NC4CC4)nc(Cl)nc32)O1 | 180 µM |
| NC(=O)C1=CSN([C@@H]2O[C@H](COP(=O)([O-])OP(=O)([O-])OCC3OC(n4cnc5c(N)ncnc54)C(F)C3O)[C@@H](O)[C@H]2O)N1 | >100 µM |
| OC[C@@H]1CC[C@H](n2cnc3c(NC4CCCCCC4)nc(Cl)nc32)O1 | 315 µM |
| NC(=O)c1ncn([C@@H]2O[C@H](CO)[C@@H](O)[C@H]2O)c1O | >100 µM |
| C=C1[C@H](CO)[C@@H](O)C[C@@H]1n1cnc2c(=O)[nH]c(N)nc21 | 78 µM |
| COc1cc(O)c(CC=C(C)C)c2c1C(=O)CC(c1ccc(O)cc1)O2 | 2.5 µg/mL |
| OC[C@@H]1[C@@H](O)[C@H](O)[C@@H](O)CN1CCCC1CCCCC1 | 300 µM |
| COc1c(C)c2c(c(O)c1C/C=C(\C)CCCO)C(=O)OC2 | 60 µM |
| OC[C@@H]1C[C@@H](O)[C@H](n2cnc3c(NC4CCCCCC4)cc(Cl)nc32)O1 | 191 µM |
| CCCCN1C[C@H](O)[C@@H](O)[C@H](O)[C@H]1CO | >300 µM |
| Nc1cc(Cl)nc2c1ncn2[C@@H]1O[C@H](CO)C[C@H]1O | 140 µM |
| CCC(C)CCC[C@H](C)CCN1C[C@H](O)[C@@H](O)[C@H](O)[C@H]1CO | 500 µM |

A second listing of 2 rows from above:

structure | value
OC[C@@H]1CC[C@H](n2cnc3c(NC4CCCCCC4)nc(Cl)nc32)O1 | 315 µM
CCC(C)CCC[C@H](C)CCN1C[C@H](O)[C@@H](O)[C@H](O)[C@H]1CO | 500 µM

Neighbouring rows are from separate reports.